In ChEMBL document CHEMBL1138621, “Inhibition of tRNA-dependent ligase MurM from Streptococcus pneumoniae by phosphonate and sulfonamide inhibitors” (Bioorg Med Chem, 2009):

Tested on: Streptococcus pneumoniae
Assay: Inhibition of penicillin-resistant Streptococcus pneumoniae 159 recombinant MurM at 1 mM by liquid scintillation counting

**Q.** How did the inhibition turn out when `CP(=O)(O)O[C@H]1C[C@H](n2cnc3c(N)ncnc32)O[C@@H]1CO` was run?
**A.** Its inhibition is 7%.
